Compound potency records, mixed from different reports. Data source: NIAID ChemDB in PubChem.

All rows: whole-cell or culture tests; organism: Herpes simplex virus 2; read by: cytopathic effect; measure: EC50

Two numbers with a dash give a range or band.

smiles | strain or isolate | cells | result
C/C=C/Cc1cn([C@H]2C[C@H](O)[C@@H](CO)O2)c(=O)[nH]c1=O | 3345 | BHK-21 | >100 µg/mL
CC1(C)[C@@H](CO)CC[C@@]1(C)Cn1cnc2c(N)ncnc21 | G | E6SM | >400 µg/mL
OC[C@H]1O[C@H](c2cc(I)c(F)cc2F)C[C@@H]1O | LYONS | E6SM | >400 µg/mL
Cc1cn(N2C[C@H](CO)[C@H]2CO)c(=O)[nH]c1=O | - | VERO | >100 µg/mL
C[C@@]1(O)[C@@H](CO)O[C@@H](n2cnc3c(N)ncnc32)[C@@H]1O | G | E6SM | 20 µg/mL
Nc1ncnc2c1ncn2N1C[C@H](CO)[C@H]1CO | - | VERO | 34.2 µg/mL
O=c1[nH]n2c(-c3cn(-c4ccccc4)nc3-c3ccccc3)nnc2s1 | G | HEL | >16 µg/mL
COC(=O)CC(SCCO)n1cc(C)c(=O)[nH]c1=O | - | HFF | >200 µM
Nc1nc(=O)n([C@H]2C[C@H](O)[C@@H](CO)O2)cc1/C=C/Cl | G | PRK | 20 µg/mL
Nc1nc(Cl)c2ncn([C@@H](CCO)OCCO)c2n1 | - | HFF | >200 µM
Nc1ccn(N2C[C@H](CO)[C@H]2CO)c(=O)n1 | - | VERO | >100 µg/mL
Nc1nc2c(ncn2C=C2CC2CO)c(=O)[nH]1 | - | VERO | >100 µM
c1ccc(C2=Nn3c(nnc3-c3cn(-c4ccccc4)nc3-c3ccccc3)SC2)cc1 | G | HEL | >3.2 µg/mL
OC[C@H]1O[C@@H](c2cc(I)c(F)cc2F)C[C@@H]1O | G | E6SM | >400 µg/mL
O=c1[nH]c(=O)n([C@H]2C[C@H](O)[C@@H](CO)O2)cc1/C=C/Br | 196 | PRK | 70 µg/mL
CC1(C)[C@@H](CO)CC[C@@]1(C)Cn1cc(I)c(=O)[nH]c1=O | G | E6SM | >400 µg/mL
Cc1cn(C2OC[C@H](CO)[C@H]2CO)c(=O)[nH]c1=O | - | VERO | >100 µg/mL
O=c1[nH]c(=O)n([C@H]2C[C@H](O)[C@@H](CO)O2)cc1/C=C\Cl | LYONS | PRK | 7 µg/mL
C=Cc1cn([C@H]2C[C@H](O)[C@@H](CO)O2)c(=O)[nH]c1=O | 3345 | BHK-21 | 0.5 µg/mL
COc1cc(F)c([C@H]2C[C@H](O)[C@@H](CO)O2)cc1[N+](=O)[O-] | LYONS | E6SM | >400 µg/mL
Nc1ncnc2c1ncn2C[C@H](O)CO | G | PRK | >400 µg/mL
CCCCc1cn([C@H]2C[C@H](O)[C@@H](CO)O2)c(=O)[nH]c1=O | 3345 | BHK-21 | >100 µg/mL
CC(=O)Nn1c(-c2cn(-c3ccccc3)nc2-c2ccccc2)n[nH]c1=S | G | HEL | >80 µg/mL
Nc1ncnc2c1ncn2[C@@H]1C[C@H](COP(=O)(O)O)[C@@H](O)[C@H]1O | - | PRK | ≥400 µg/mL
Nc1nc2c(ncn2N2CC[C@H](CO)[C@H]2CO)c(=O)[nH]1 | - | VERO | >100 µg/mL
Nc1ccnc(O[C@H]2CO[C@H](CO)[C@@H](O)C2)n1 | G | E6SM | >20 µg/mL
Nc1ncnc2c1ncn2C1CC(CO)[C@@H](O)[C@H]1O | - | PRK | 4 µg/mL
NC1=NC2C(C=CN2CC(CO)CCO)C(=O)N1 | G | VERO | 13 µg/mL
Cc1cn(C2SC[C@H](CO)[C@H]2CO)c(=O)[nH]c1=O | - | VERO | >100 µg/mL
Cc1cc([C@@H]2C[C@H](O)[C@@H](CO)O2)c(F)cc1F | 196 | E6SM | >400 µg/mL
Cc1cn([C@@H]2O[C@H](COP(=O)(O)O)[C@@H](O)[C@@H]2O)c(=O)[nH]c1=O | MS | HELF | 1 µg/mL
CC/C=C/c1cn([C@H]2C[C@H](O)[C@@H](CO)O2)c(=O)[nH]c1=O | 3345 | BHK-21 | 100 µg/mL
Nc1nc2c(ncn2[C@@H](CCO)SCCO)c(=O)[nH]1 | - | HFF | >200 µM
Nc1nc(N)c2ncn([C@H]3CO[C@H](CO)[C@@H](O)C3)c2n1 | G | E6SM | >20 µg/mL
Nc1nc2c(ncn2CCC(CO)CO)c(=O)[nH]1 | - | VERO | 0.1–1 µM
Cc1cc([C@@H]2C[C@H](O)[C@@H](CO)O2)c(Cl)cc1F | 196 | E6SM | >400 µg/mL
Nc1ncnc2c1ncn2[C@@H]1O[C@H](CO)[C@](O)(C(F)(F)F)[C@H]1O | G | E6SM | 400 µg/mL
CC1(C)[C@@H](CO)CC[C@@]1(C)Cn1cnc2c(=O)[nH]cnc21 | G | E6SM | >400 µg/mL
Nc1nc2c(ncn2COCCO)c(=O)[nH]1 | F51695 (acyclovir-susceptible) | HFF | 2.5 µg/mL
Nc1nc2c(ncn2C[C@]2(CO)C[C@H]2CO)c(=O)[nH]1 | - | VERO | 0.1–1 µM
Cc1cn([C@H]2CO[C@H](CO)[C@@H](O)C2)c(=O)[nH]c1=O | G | E6SM | >20 µg/mL
S=c1[nH]nc(-c2cn(-c3ccccc3)nc2-c2ccccc2)o1 | G | HEL | >16 µg/mL
Nc1nc2c(ncn2N2C[C@H](CO)[C@H]2CO)c(=O)[nH]1 | - | VERO | 6.32 µg/mL

4 of the rows above, restated:

{"smiles": "C=Cc1cn([C@H]2C[C@H](O)[C@@H](CO)O2)c(=O)[nH]c1=O", "strain or isolate": "3345", "cells": "BHK-21", "result": "0.5 µg/mL"}
{"smiles": "COC(=O)CC(SCCO)n1cc(C)c(=O)[nH]c1=O", "cells": "HFF", "result": ">200 µM"}
{"smiles": "Nc1nc2c(ncn2C=C2CC2CO)c(=O)[nH]1", "cells": "VERO", "result": ">100 µM"}
{"smiles": "CCCCc1cn([C@H]2C[C@H](O)[C@@H](CO)O2)c(=O)[nH]c1=O", "strain or isolate": "3345", "cells": "BHK-21", "result": ">100 µg/mL"}

ECn: concentration that inhibits the pathogen or its effect by n%. Conditions beyond the fields shown may differ between rows. An empty or dashed field is not shown.